From patent US9085571B2, “Nonpeptide HIV-1 protease inhibitors” (Purdue Research Foundation, priority 2008, dated 2015)

Biological target: HIV-1 protease (Human immunodeficiency virus type 1 group M subtype B (isolate HXB2) (HIV-1), UniProt P04585)
Test: Inhibition of HIV proteases (inhibition constants, method of Toth and Marshall)
Conditions: read-out: Inhibition of HIV-1 (Ki)
Description: Techniques for measurement of the ability of the compounds herein described to decrease the proteolytic activity of proteases encoded by HIV are well known to those skilled in the relevant art and any one or combination of such techniques can be used to measure the inhibition of protease activity of the compound herein described. One illustrative method is described by Toth and Marshall (Toth & Marshall, Int. J. Pep. Protein Res. (1990), 36, 544-550). The disclosure of the foregoing is incorporated herein in its entirety by reference. In addition, the entirety of the disclosures of each of the publications cited herein are also incorporated herein by reference.

COc1ccc(S(=O)(=O)N(CC(C)C)C[C@@H](O)[C@H](Cc2ccccc2)NC(=O)c2cccc(CN(C)Cc3csc(C)n3)c2)cc1
Ki: 200 nM
